These results are taken from doi:10.1101/2020.02.05.936021.

Residue numbers refer to the chain shown, from its start. For at least one entry, the source does not settle the construct or the ends of the probe. At least one verdict rests on a figure or table, not on a statement of the authors. Tags and fusion partners may be left off the protein sequences shown.

One data set addresses T1, hA3C-GST (Homo sapiens) (UniProt Q9NRW3).
T1 sequence (looked up, limits assumed): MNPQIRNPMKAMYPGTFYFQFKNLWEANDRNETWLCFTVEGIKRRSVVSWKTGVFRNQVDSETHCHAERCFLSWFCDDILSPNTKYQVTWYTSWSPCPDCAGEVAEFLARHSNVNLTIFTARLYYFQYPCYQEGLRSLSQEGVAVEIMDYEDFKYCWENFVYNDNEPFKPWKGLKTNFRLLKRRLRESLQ
Kind of data set: competition with a labelled probe. The following applies: 500-fold excess over probe, 8 nM protein, disrupted the complex.

The target in data set [1] is T2, hA3C.WE-RK-GST W25R,E26K (Homo sapiens) (UniProt Q9NRW3).
T2 sequence (looked up, limits assumed): T1 sequence (looked up, limits assumed) with W25R, E26K
Put plainly: competition with a labelled probe. The following applies: 500-fold excess over probe, 8 nM protein, disrupted the complex.

Turning to “GGATTGGTTGGTTATTTGTATAAGGAAGGTGGATTGAAGGTTCAAGAAGGTGATGGAAGTTATGTTTGGTAGATTGATGG [unlabeled 80-nt TTCA deamination substrate (competitor)]”, the binding result (with hA3C-GST (Homo sapiens); in data set [1]) was “binds” each time.
